The results in this text go back to ChEMBL document CHEMBL1129709, “(Hydroxyethyl) sulfonamide HIV-1 Protease inhibitors: Identification of the 2-methylbenzoyl moiety at P-2” (Bioorg Med Chem Lett, 1996).

For this series, the system named is CCRF-CEM. Briefly: Toxic dose was evaluated against HIV-IIIB strain of HIV-1 in CEM cell culture assay. The conditions noted are these: Homo sapiens, CEM cells; read-out: TD50 (the source's name).

Some results are limits rather than exact numbers.

For the compound `COc1ccc(S(=O)(=O)N(CC(C)C)C[C@@H](O)[C@H](Cc2ccccc2)NC(=O)c2ccc(N)cc2C)cc1`, the CC50 was above 10 µM.
